Reference: patent US8361765B2, “Enzymic method for the enantioselective reduction of keto compounds” (IEP GmbH, priority 2001, dated 2013)
Like-named read-outs stand apart in the source and are kept apart here.

Test: Temperature optimum of the enzymic reaction
Format: biochemical, Lactobacillus minor
Experimental: The optimal assay temperature was determined by measuring the enzyme activity from 25° C. to 60° C. The assay mixture corresponded to the standard concentration of ethyl 4-chloro-3-oxo-butanoate and NADPH.

B1: L. minor alcohol dehydrogenase: R-specific alcohol dehydrogenase from Lactobacillus minor, SEQ ID NO: 4, overexpressed in Escherichia coli RB 791 (protein, listed as Lactobacillus sp.)
chain: MRGSHHHHHHGSMTDRLKGKVAIVTGGTLGIGLAIADKFVEEGAKVVITGRHADVGEKAARSIGGTDVIRFVQHDASDETGWTKLFDTTEEAFGPVTTVVNNAGIAVSKSVEDTTTEEWRKLLSVNLDGVFFGTRLGIQRMKNKGLGASIINMSSIEGEVGDPALGAYNASKGAVRIMSKSAALDCALKDYDVRVNTVHPGYIKTPLVDDLEGAEEMMSQRTKTPMGHIGEPNDIAWICVYLASDESKFATGAEFVVDGGYTAQ
temperature optimum of the enzymic reaction: 55 °C | temperature optimum of the enzymic reaction (listed as Lactobacillus minor alcohol dehydrogenase): about 55 °C
